Measured values from patent US6673791B2, “Non-nucleoside reverse transcriptase inhibitors” (Boehringer Ingelheim (Canada) Ltd., priority 2001, dated 2004).

Tests used:
[1] = molecular target: WT RT (HIV-1 RT) (Human immunodeficiency virus type 1 group M subtype B, UniProt P03366); conditions: read-out: IC50 WT RT; wild type RT
[2] = molecular target: K103N/Y181C double mutant RT (HIV-1 RT) (Human immunodeficiency virus type 1 group M subtype B, UniProt P03366, K702N/Y780C); conditions: read-out: IC50 K103N/Y181C
[3] = system: WT RT (HIV-1 wild type strain); assay: EC50 assay, WT RT strain; assay type: cell-based; conditions: read-out: EC50 WT RT
[4] = molecular target: Y188L mutant RT (HIV-1 RT) (Human immunodeficiency virus type 1 group M subtype B, UniProt P03366, Y787L); conditions: read-out: IC50 Y188L
[5] = molecular target: V106A mutant RT (HIV-1 RT) (Human immunodeficiency virus type 1 group M subtype B, UniProt P03366, V705A); conditions: read-out: IC50 V106A

CCN1c2ncc(CCOc3cccc4c(NS(C)(=O)=O)cccc34)cc2C(=O)N(C)c2ccc(F)nc21
IC50 [1]: < 100 nM
IC50 [2]: < 100 nM
EC50 [3]: < 100 nM
IC50 [4]: 100 to 1000 nM
IC50 [5]: 100 to 1000 nM
